# Only a part is listed here, and it is no random draw. Calls of active or inactive are those of the source. Cut-off read from the data, not from the text of the source: active = inhibition above about 52%; inactive = the rest.
# Experiment: suppresses PrP 5' UTR mRNA reporter expression (AID 488862); note: 0 = median of the neutral control wells
# Conditions: cell-based PrP 5' UTR mRNA reporter, plate reader; stronger effect = higher value; concentration not given here
row,Structure (SMILES),inhibition
1,O=P(Nc1ccccn1)(c1cccc2ccccc12)c1cccc2ccccc12,active: 78.6%
2,CN(C(=O)Cc1ccc(Cl)c(Cl)c1)[C@H]1CCCC[C@@H]1N1CCCC1,active: 85.3%

# From PubChem BioAssay AID488862 (Broad Institute, 2010)
